# Screening data, single-dose tests

From ChEMBL document CHEMBL3988442, “University of Dundee, Small-Polar-MMV Screening Library” (2021).

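Whole-cell growth test on Mycobacterium tuberculosis, read after 4 days in a medium based on cholesterol and the lipid DPPC; the read-out is not stated. Compounds at 50 µM. Higher reads as more growth inhibition (inferred: compounds with an IC50 in retests scored well above the rest). Of about 69,000 compounds tested this way, about 370 (0.54%) reached 50% or more in at least one test.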

Results are given as percent effect.
How 0% and 100% were set is not recorded. Most values in the screen are low, and negative values occur.
This is part of a subset picked to be rich in strong results.
Two or more numbers in one place are separate tests of the same structure; such repeats can differ widely.

SMILES	percent effect
CC(C)OCCN1CCN(C(=O)c2cccc(-n3cccn3)n2)CC1	10.89
CC(C)c1noc(CN(C)C(=O)c2ncn[nH]2)n1	-10.51
Br.Cc1ccc(C(=O)CN(C2=NCCCCC2)c2ccccc2)cc1	35.63
COc1cccc(C(=O)Nc2cc(CC(C)C)nn2C)c1	-9.563
Cc1ccc2c(c1)CCC21CCN(CCO)CC1	3.909
Cc1nc(N2CC[C@@H](c3ccc4ccccc4c3)[C@H](O)C2)no1	6.429
COc1cc(OC)cc(N2CCC(NC(=O)c3cccn3C)CC2)c1	7.143
Cc1cc(-c2noc(C3CCS(=O)(=O)C3)n2)ccc1F (centres undefined)	12.03
CC(C)C[C@H](N)COc1cccc(F)c1Oc1ccc(Cl)cc1	93.35
CCC(C)NC(=O)c1cncc(Br)c1 (centres undefined)	-16.85
Cc1ccc2nnc(C(=O)NCC3CCCC3)nc2c1	59.26
CSCCC(CO)NC(=O)c1sc(-c2ccccc2Cl)nc1C (centres undefined)	-8.555
O=S(=O)(CCc1ccccc1)Cc1nc(C2CC2)no1	47.63 & 60.13
Cc1cc2c(cc1Cl)C=CC1(CCN(CC(=O)N3CCCC3)CC1)O2	6.952 & 38.48
c1cnc(N2CCCC(c3cncc(-n4ccnc4)n3)C2)nc1 (centres undefined)	-14.17
CCNC(=O)N1CCC(=Cc2ccccc2)CC1	12.64
O=C(NCc1ccc(CO)cc1)C1CCOc2ccccc2C1 (centres undefined)	91.85
COC(=O)c1ccc(N2CCC(C(O)c3ccccc3)CC2)nn1 (centres undefined)	107.8
Fc1ccc(CCC2CCCN(Cc3c[nH]cn3)C2)c(F)c1 (centres undefined)	12.28
c1ccc(Oc2ccc(OC34CCCN(CC3)C4)cc2)cc1 (centres undefined)	58.08
O=C(c1cc(COc2ccc3c(c2)OCO3)[nH]n1)N1CCCC1	34.25
CCc1nc(C)c(C(=O)NCC2COc3cc(OC)ccc3C2)o1 (centres undefined)	8.941
CCN1CCN(C[C@@H]2CN(c3ncc(Cl)cc3F)C[C@@H]2CO)CC1	17.95
COc1coc(CN2CCCC(CCc3c(F)cccc3F)C2)cc1=O (centres undefined)	49.84
CC(=O)Nc1nc(C(=O)NCc2ccnc(N3CCCC3)c2)cs1	-20.38
Cl.Fc1ccc(-c2cnc(C3CCCN3)cn2)cc1 (centres undefined)	20.32 & 8.44
COc1cnc(C2(O)CCN(C(=O)c3ccncc3)CC2)c(OC)n1	-13.83
O=C(NCCOc1ncc(Cl)cc1Cl)c1ccncc1	0.99 & -6.85
O=C(COCc1ccccc1)Nc1ccccn1	18.46
CC(O)c1cccc(Nc2nc(NCCO)c3ccccc3n2)c1 (centres undefined)	18.67
COc1cccc(NC(C(N)=O)c2ccc(Br)cc2)c1 (centres undefined)	-3.01
CCCc1cc(=O)[nH]c(-n2nc(-c3cccs3)cc2N)n1	18.19
CCOCC1CCN(C(=O)C(c2ccccc2F)N(C)C)CC1 (centres undefined)	67.06
Cc1nc(COc2cccc(C#N)c2)no1	11.08
CCn1nnc2c1C(COCC(=O)N(C)C)CN(Cc1ccco1)C2.O=C(O)C(F)(F)F (centres undefined)	0.2022
Fc1cc(Oc2ccc(C(F)(F)F)cn2)cc(F)c1CN1CCCC1	2.741
COc1cc(Cl)c(NCc2c(C)noc2C)cc1OC	-8.892
O=C(c1ccncc1)N1CCCC(c2ncncc2-c2ccncc2)C1 (centres undefined)	-16.95
O=C(c1ccco1)N1CCC(n2cc(-c3ccsc3)nn2)CC1	-2.825
CCOc1ccc(N2CCC(C(O)c3ccccc3)CC2)nn1 (centres undefined)	-11.01
CCc1nnsc1C(=O)N1CCCN(Cc2ccc(F)cc2)CC1	7.749
O=C(Cc1ccccc1Cl)Nc1cnn(C2CCOC2)c1 (centres undefined)	-2.142
CS(=O)(=O)CCSc1nnc(Cc2ccccc2F)o1	-7.005 & 11.47
COc1cccn(CC(=O)N(C)CCC2CCOCC2)c1=O	100.4
CCc1onc(C)c1C(=O)N1CCC(c2cc3ncccc3cn2)CC1	-8.498
c1csc(CN2CCCN(c3ccc(Cn4ccnc4)cn3)CC2)c1	-6.669
Cc1nc(CNC(=O)[C@@H]2CCCN2C(=O)OC(C)(C)C)cs1	-13.22
Cc1cccnc1CN1CCOC(Cc2cccc3ccccc23)C1 (centres undefined)	17.29 & 25.03
CCC(CO)NCc1ccc(-c2ccc(F)c(Cl)c2)o1.Cl (centres undefined)	36.73
O=C(CSc1nncs1)N1CCN(Cc2ccc(Cl)s2)CC1	44.42
CC(C)Cc1cc(C(=O)NC(C)C)[nH]n1	-3.424
Cc1cccc(NCCNc2ccc(C#N)cn2)n1	-0.889
CN(Cc1cccc(F)c1)C(=O)c1ccncc1Cl	-8.195
OCCn1nnnc1Cc1ccc(Br)cc1	18.72
N#CC1(C(=O)NCCCNc2ccc(C(F)(F)F)cn2)CCCC1	92.99
CC(CNC(=O)c1c[nH]nn1)Oc1ccccc1Br (centres undefined)	9.18 & 7.025
Cc1ccsc1-c1cccc(-c2ccn(CC3CCNC3)n2)c1 (centres undefined)	54.49
CCc1ccccc1OC1CN(C(=O)c2sccc2N)C1	1.321 & 7.743
Cc1cnn(CCNCc2nccn2Cc2ccccc2)c1	21.1
Cl.FC(F)(F)c1ccc(-c2cnc(C3CCCN3)cn2)cc1 (centres undefined)	50.49 & 37.43
CCOC(=O)c1ccc(N2CCN(Cc3c(C)nn(C)c3Cl)CC2)nc1	29.18
[H][C@]12CC[C@]([H])(CN(Cc3noc(C4CCCC4)n3)C1)N(CC1CCC1)C2	28.21
CCn1nnc(NCc2ccccc2OCc2ccc(Cl)cc2)n1	49.1
COc1cc2c(cc1CNC(Cc1cccs1)c1nccs1)OCCO2.Cl (centres undefined)	13.68 & 19.3
COc1ccc(S(=O)(=O)Nc2cnc(N(C)C)nc2)cc1	25.9
COc1cccc(COCC(O)CN(C)c2ccc(C)cc2C)c1 (centres undefined)	20.39
O=C(Cc1cccc(Cl)c1)N[C@@H]1CCNC[C@H]1O	-6.745
Cc1cc(N(C)Cc2ccsc2)n2nc(C)c(C)c2n1	73.41

7 of the entries, repeated:

| SMILES | percent effect |
|---|---|
| `Cc1cc(N(C)Cc2ccsc2)n2nc(C)c(C)c2n1` | 73.41 |
| `Fc1cc(Oc2ccc(C(F)(F)F)cn2)cc(F)c1CN1CCCC1` | 2.741 |
| `CCOC(=O)c1ccc(N2CCN(Cc3c(C)nn(C)c3Cl)CC2)nc1` | 29.18 |
| `Cl.FC(F)(F)c1ccc(-c2cnc(C3CCCN3)cn2)cc1` (centres undefined) | 50.49 & 37.43 |
| `O=C(c1ccncc1)N1CCCC(c2ncncc2-c2ccncc2)C1` (centres undefined) | -16.95 |
| `CC(C)C[C@H](N)COc1cccc(F)c1Oc1ccc(Cl)cc1` | 93.35 |
| `Cl.Fc1ccc(-c2cnc(C3CCCN3)cn2)cc1` (centres undefined) | 20.32 & 8.44 |